The chains behind the UniProt entries cited, without tags or fusion partners. Residues count along the entry.
UniProt Q45894, 1-425: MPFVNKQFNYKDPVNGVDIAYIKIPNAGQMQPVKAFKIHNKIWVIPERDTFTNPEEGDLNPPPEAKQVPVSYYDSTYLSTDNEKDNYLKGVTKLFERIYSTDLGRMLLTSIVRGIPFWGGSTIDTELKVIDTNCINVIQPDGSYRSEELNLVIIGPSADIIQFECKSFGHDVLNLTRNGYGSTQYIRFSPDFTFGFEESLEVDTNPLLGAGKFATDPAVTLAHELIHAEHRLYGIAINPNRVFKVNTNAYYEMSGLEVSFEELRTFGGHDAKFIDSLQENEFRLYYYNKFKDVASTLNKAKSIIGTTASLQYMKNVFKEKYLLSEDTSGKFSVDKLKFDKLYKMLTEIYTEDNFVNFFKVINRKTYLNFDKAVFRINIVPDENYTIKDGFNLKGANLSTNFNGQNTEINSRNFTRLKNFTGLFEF

According to BindingDB's records for 17293454:

Molecular target: Botulinum neurotoxin type A2 [1-425] (Clostridium botulinum, UniProt Q45894)
Details: pH 7.4

Compound | IC50 [µM]
COc1ccc(CCNC(=O)CN(CC(=O)NC2CC2c2ccccc2)C(=O)Cn2c(C(=O)N[C@H]3CCCC[C@@H]3NC(=O)c3cc4ccccc4n3CC(=O)N(CC(=O)NCCc3ccc(OC)cc3)CC(=O)NC3CC3c3ccccc3)cc3ccccc32)cc1 (some centres not stated) | 7.6
CCC1CN(C(=O)C=Cc2ccccc2)CC(=O)N1Cc1ccc(C)cc1 (configuration not stated) | 12.5
